Results on two substances are retold here after patent US9340600B2 (Indiana University Research and Technology Corporation, priority 2012, dated 2016).

This data set can be described thus: general procedure: Boc solid-phase peptide synthesis; MBHA resin, 100-180 mesh, 1% DVB, loading 0.7-1.0 mmol/g (Midwest Biotech); DEPBT/DIEA single couplings; DIC for acylation. The note with it: whole synthesis, Analytical HPLC, UV 214/220 nm, scale of the general procedure 0.2 mmole.

For “HaibQGTFTSDYSKYLDERAAQDFVQWLLDGGPSSGAPPPSC-amide”, the “final HPLC purity” value was determined as 95%.

For the substance “HaibQGTFTSDYSKYLDERAAQDFVQWLLDGGPSSGAPPPSK(Dap-BrAcetyl)G-amide”, the “final HPLC purity” value is given as “purity=90%+”.
